Laboratory results as given in PMC7886143, “A redox-active crosslinker reveals an essential and inhibitable oxidative folding network in the endoplasmic reticulum of malaria parasites” (2021).

What was measured:
PfJ2 = PfJ2 (Plasmodium falciparum, UniProt Q8IIR6); assay: covalent crosslinking in parasites, anti-HA western blot; IP and MS/MS; conditions: bifunctional crosslinker, 3 mM, 1x PBS, 30 min, 37 °C
PfPDI8 = PfPDI8 (Plasmodium falciparum, UniProt C0H4Y6); assay: covalent crosslinking in parasites, anti-V5 western blot; conditions: bifunctional crosslinker, 3 mM, 1x PBS, 30 min, 37 °C

## C=CS(=O)(=O)C=C
PfJ2
  covalent crosslinking in parasites, anti-HA western blot; IP and MS/MS: the addition of DVSF resulted in additional bands containing PfJ2 to appear
PfPDI8
  covalent crosslinking in parasites, anti-V5 western blot: Several high molecular weight bands containing PfPDI8 appear following DVSF treatment
